Assay results as given in patent US20110283604A1, “BIODEGRADATION OF RENEWABLE HYDROCARBON FUEL BLENDS” (BUTAMAX(TM) ADVANCED BIOFUELS LLC, priority 2010, published 2011).

Assays:
[1] = system: soil-groundwater slurries; assay: Anaerobic microcosm biodegradation (nitrate-reducing to methanogenic); details: for day by which concentration had decreased below the analytical detection limit: data not shown; for time to complete biodegradation: lower concentration (68 μM)
[2] = system: soil-groundwater slurries; assay: Aerobic microcosm biodegradation of BTEX, isobutanol and ethanol

Compound: CC(C)C(=O)O [isobutyric acid]
- day by which concentration had decreased below the analytical detection limit ([1]; Treatment 3 (unamended, lower concentration)): ≤ 160 days
- day by which concentration had decreased below the analytical detection limit ([1]; Treatment 13 (sulfate reducing, lower concentration)): ≤ 48 days
- accumulation as biodegradation intermediate ([1]; all treatments except high concentration nitrate-amended): near (with a factor of approximately 2) stoichiometric quantities
- accumulation as biodegradation intermediate ([1]; high concentration nitrate-amended treatment): 5%
- fate in samples taken after 82 days ([2]; Treatment 3, aerobic (data not shown)): further degraded
- concentration by day 48 ([2]; Treatment 4, aerobic): 100 µM

Compound: CC(C)CO [isobutanol]
- time to degradation of re-spiked alcohol ([1]; Treatment 2 re-spiked to 3,400 μM at 88 days, after depletion of sulfate (methanogenic conditions)): ≤ 30 days
- time to degradation below detection limits ([1]; Treatment 6, nitrate-reducing, higher concentration (3,400 μM)): ≤ 16 days
- time to degradation below the analytical detection limit ([1]; iron-amended treatment, higher concentration): ≤ 80 days
- time to complete biodegradation ([1]; iron-amended treatment): ≤ 25 days
- time to complete biodegradation ([1]; unamended, nitrate-amended and sulfate-amended treatments): ≤ 15 days

Compound: CCO [ethanol, reference compound]
- time to degradation below the analytical detection limit ([1]; Treatments 4 and 14, sulfate reducing conditions, ethanol 11,000 μM): approximately 60 days
- impact of alcohol on BTEX biodegradation ([2]; comparison microcosms (Treatments 4, 5 and 6), aerobic): greater adverse impacts on BTEX biodegradation than isobutanol
